Compound potency records, mixed from different reports. Data source: NIAID ChemDB in PubChem.

Shared fields: growth or infection tests; agent: Hepatitis C virus; endpoint: EC50

An empty or dashed field is not shown.

smiles | strain | changes | cells | method | value
Fc1ccccc1-c1nc2ccn(Cc3ccc(-c4ccc(C(F)(F)F)cc4C(F)(F)F)nn3)cc-2n1 | 2b | - | Huh7 | luciferase | 6.71 µM
CC(=O)OC1CCC2(C)C(CCC3C2CC(=O)C2(C)C3CC(N3CC3)C2C(C)=O)C1 | sg1a (H77) | - | Huh7-1 | PCR | 14.15 µM
C=C[C@@H]1C[C@]1(NC(=O)[C@@H]1C[C@@H](Oc2nccc3ccc(Br)cc23)CN1C(C)=O)C(=O)NS(=O)(=O)C1CC1 | 1b R155K | - | - | luciferase | >3 µM
C[C@H](Br)C(=O)c1ccc2cc(Br)c3ccccc3c2c1 | JFH-1 | - | Huh7-1 | PCR | 33 µM
CC1CCC(C(=O)N(c2cc(C#CC(C)(C)C)sc2C(=O)O)C2CCC(O)CC2)CC1 | GT2b | - | Huh7-Lunet | luciferase | >50 µM
CC(C)OC(=O)[C@H](C)N[P@](=O)(OC[C@H]1O[C@@](C#N)(c2ccc3c(N)ncnn23)[C@](C)(O)[C@@H]1OC(=O)C(C)C)Oc1ccccc1 | 6a HK | - | Huh7 replicon | luciferase | 0.11 µM
O=C(O)c1cccc([As]=[As]c2cccc(C(=O)O)c2)c1 | sg1b | - | Huh7-1 | PCR | 0.7 µM
CC(=O)Nc1ccc(-c2ccc(Cl)cc2)c(COc2ccc(-c3nc4cc(C(=O)O)ccc4n3C3CCCCC3)cc2)c1 | - | - | Con-1 | luciferase | 1.624 µM
COc1ccc2c(O[C@@H]3C[C@H]4C(=O)N[C@]5(C(=O)NS(=O)(=O)C6CC6)C[C@H]5/C=C\CCCCN(C)C(=O)[C@@H]4C3)cc(-c3nc(C(C)C)cs3)nc2c1C | S52 | - | Huh7.5 | antigen | 1.988 µM
CNC(=O)c1c(-c2ccc(F)cc2)oc2cc(N(CCO)S(C)(=O)=O)c(C3CC3)cc12 | 5a | - | Huh7 | luciferase | 0.0011 µM
CC1=CC[C@H](C(=O)N(c2cc(C#CC(C)(C)C)sc2C(=O)O)C2CCC(O)(CO[C@H]3CCOC3)CC2)CC1 | GT4a | - | Huh7-Lunet | luciferase | 0.348 µM
C[C@@]1(O)[C@H](O)[C@@H](CO)O[C@H]1n1cnc2c(N)ncnc21 | Con1 | - | 1C | luciferase | 0.37 µM
CCN(CC)CCN1C(=O)c2cccc3cc(N)cc(c23)C1=O | sg1a (H77) | - | Huh7-1 | PCR | 5.6 µM
CC[C@H]1C[C@]1(NC(=O)[C@@H]1C[C@@H]2CN1C(=O)[C@H](C(C)(C)C)NC(=O)OCC(C)(C)CCCCc1cccc3c1CN(C3)C(=O)O2)C(=O)NS(=O)(=O)C1CC1 | 452 | - | Huh7.5 | antigen | 2.178 µM
CCC[C@H](NC(=O)[C@@H]1[C@H]2CCC[C@H]2CN1C(=O)[C@@H](NC(=O)[C@@H](NC(=O)c1cnccn1)C1CCCCC1)C(C)(C)C)C(=O)C(=O)NC1CC1 | genotype 1b | Y93N | Huh7.5 | luciferase / reporter gene | 0.1581 µM
[N-]=[N+]=N[C@]1(CO)O[C@@H](n2ccc(N)nc2=O)[C@H](O)[C@@H]1O | Con1 | - | 1C | luciferase | 2.4 µM

For reference, 2 entries again:

{"smiles": "CC(C)OC(=O)[C@H](C)N[P@](=O)(OC[C@H]1O[C@@](C#N)(c2ccc3c(N)ncnn23)[C@](C)(O)[C@@H]1OC(=O)C(C)C)Oc1ccccc1", "strain": "6a HK", "cells": "Huh7 replicon", "method": "luciferase", "value": "0.11 µM"}
{"smiles": "COc1ccc2c(O[C@@H]3C[C@H]4C(=O)N[C@]5(C(=O)NS(=O)(=O)C6CC6)C[C@H]5/C=C\\CCCCN(C)C(=O)[C@@H]4C3)cc(-c3nc(C(C)C)cs3)nc2c1C", "strain": "S52", "cells": "Huh7.5", "method": "antigen", "value": "1.988 µM"}

ECn: concentration that inhibits the pathogen or its effect by n%. Lines come from different laboratories, so protocols vary.